Potato spindle tuber viroid, loop 6: variant abundance in plants

PSTVd intermediate strain, loop 6: wild type UGACCGCGAG, pool pattern UNNNCGNNNG; upper and lower strand joined, each 5' to 3', the first 5 letters being the upper strand, closing pairs included.

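Three N. benthamiana plants were inoculated with the whole mutant pool. Samples came from the inoculated region at 5 days, the leaf margin at 10 and upper systemic leaves at 12.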

Values are reads per thousand in the sample; higher means more abundant, 0 means not found. Each site shows the three plants. "Pool" is the share in the plasmid pool used as inoculum, on the same scale. The inoculated region was read from the minus strand, the other sites from the plus strand. IR is the inoculated region, LM the leaf margin, Sys the systemic leaves.

sequence,pool,IR,LM,Sys
UGGGCGUAGG,0.157,0.139 / 0.108 / 0.111,0 / 0 / 0,0 / 0 / 0
UUUACGACGG,0.105,0.0521 / 0.0719 / 0.111,0.0276 / 0 / 0.0232,0 / 0 / 0
UUAUCGAGCG,0.261,0.0869 / 0.198 / 0.111,0 / 0 / 0.0232,0 / 0.0202 / 0
UAAUCGCACG,0.196,0.139 / 0.144 / 0.0922,0.0276 / 0 / 0,0 / 0 / 0
UGUCCGCACG,0.275,0.191 / 0.0719 / 0.111,0 / 0 / 0.0232,0 / 0 / 0
UGCUCGCAUG,0.131,0.0695 / 0.0719 / 0.0922,0 / 0 / 0,0 / 0 / 0
UACUCUCGAG,0.0131,0 / 0 / 0,0 / 0 / 0.0232,0 / 0 / 0
UUAGCGUGGG,0.0915,0.0869 / 0.108 / 0.0369,0.0276 / 0 / 0,0 / 0 / 0
UCCGCGCCCG,0.222,0.0869 / 0.0539 / 0.0922,0 / 0 / 0,0 / 0 / 0
UAGCCGAGAG,0.288,0.712 / 0.701 / 0.406,0.138 / 1.61 / 0.0928,0 / 0 / 0
UCUGCGCACG,0.170,0.0869 / 0.0359 / 0.0922,0 / 0 / 0,0 / 0 / 0
UCCCCGAAUG,0.497,0.0348 / 0.0359 / 0.0738,0 / 0 / 0.0232,0 / 0 / 0
UGUGCGUGAG,0.353,0.156 / 0.0898 / 0.0553,0 / 0 / 0.0232,0 / 0.0404 / 0.0205
UUACCGGCGG,0.222,0.0869 / 0.126 / 0.203,0.0552 / 0 / 0.0464,0 / 0 / 0
UAACCGCGGG,0.275,0.104 / 0.126 / 0.0922,0 / 0 / 0.0232,0 / 0.0606 / 0
UGUUCGCGAU,0.0131,0.0174 / 0.0359 / 0.111,0.0276 / 0 / 0.0464,0 / 0 / 0
UCCUCGAUUG,0.353,0.0521 / 0.126 / 0.203,0 / 0 / 0,0 / 0 / 0
UUCCCGUGAG,0.144,0.122 / 0.0898 / 0.0922,0 / 0 / 0.0232,0 / 0 / 0
UGAACGAGAG,0.183,0.712 / 0.898 / 1.11,0.166 / 0.328 / 0.162,0.0180 / 0.0808 / 0.144
UCGCCGCGGG,0.209,0.209 / 0.108 / 0.0553,0.0276 / 0 / 0,0 / 0 / 0
UAGACGUGAG,0.157,0.0695 / 0.0898 / 0.111,0 / 0 / 0.0232,0 / 0 / 0
UCGCCGAGGG,0.157,0.104 / 0.108 / 0.0738,0 / 0 / 0,0 / 0 / 0
UUAUCGAAGG,0.196,0.122 / 0.0180 / 0.129,0.0276 / 0 / 0,0 / 0 / 0
UACUCGACAG,0.170,0.122 / 0.108 / 0.129,0 / 0 / 0.0232,0 / 0 / 0
UUCCCAACCG,0.0131,0 / 0 / 0,0 / 0 / 0,0 / 0 / 0
UCUACGACUG,0.366,0.122 / 0.108 / 0.0553,0 / 0 / 0,0 / 0 / 0
UGACCGAAGG,0.0261,0.104 / 0.0719 / 0.0369,0.221 / 0 / 0.0232,0 / 0 / 0
UGACCCCGUG,0.0131,0 / 0 / 0,0 / 0.101 / 0,0 / 0 / 0
UGGUCGAACG,0.196,0.104 / 0.108 / 0.111,0 / 0 / 0,0 / 0 / 0
UGUCCGUAUG,0.327,0.0521 / 0.0719 / 0.0738,0.221 / 0 / 0.0232,0 / 0 / 0
UCAUCGCCCG,0.288,0.0869 / 0 / 0.129,0.0276 / 0 / 0,0 / 0 / 0
UUCUCGGAUG,0.183,0.0521 / 0.108 / 0.0369,0 / 0 / 0,0 / 0 / 0
UUUACGUAUG,0.275,0.139 / 0.0898 / 0.129,0.331 / 0 / 0.0232,0 / 0 / 0
UAGACGAAGG,0.105,0.122 / 0.108 / 0.0922,0 / 0 / 0,0 / 0 / 0
UCCGCGUAUG,0.209,0.156 / 0.0539 / 0.129,0.276 / 0 / 0,0 / 0 / 0
UAUUCGCUCG,0.288,0.0869 / 0.0898 / 0.0738,0 / 0 / 0,0 / 0 / 0
UCCUCGUAAG,0.105,0.0348 / 0.0719 / 0.0922,0 / 0 / 0,0 / 0 / 0
UACUCGGCAG,0.170,0.851 / 0.844 / 0.443,0.166 / 0.0252 / 0.0928,0 / 0 / 0
UUACCGCGCG,0.196,0.730 / 0.575 / 0.609,0.0828 / 0.0757 / 0.0928,0.0180 / 0.0202 / 0.103
UUCGCGCCUG,0.183,0.104 / 0.0359 / 0.0922,0 / 0.101 / 0,0 / 0 / 0
UAAUCGCGCG,0.261,0.0695 / 0.108 / 0,0.0552 / 0 / 0,0 / 0 / 0
UUGCCGAUUG,0.275,0.174 / 0.0180 / 0,0 / 0 / 0,0 / 0 / 0
UUUACGUCGG,0.222,0.0695 / 0.0719 / 0.129,0 / 0 / 0,0 / 0 / 0
UCUUCGGGUG,0.261,0.0521 / 0.0719 / 0.0922,0 / 0 / 0,0 / 0 / 0
UUCGCGCCAG,0.196,0.0869 / 0.0898 / 0.0553,0 / 0 / 0.0464,0 / 0 / 0
UGGCCACAGG,0.0131,0 / 0 / 0,0 / 0 / 0,0 / 0 / 0
UAUUCGUACG,0.222,0.139 / 0 / 0,0 / 0 / 0.0232,0 / 0 / 0
UGAACGCGUG,0.170,0.643 / 0.701 / 0.535,0.166 / 0.101 / 0.162,0 / 0 / 0.0205

A selection of 5 entries from above:

sequence	pool	IR	LM	Sys
UUACCGGCGG	0.222	0.0869 / 0.126 / 0.203	0.0552 / 0 / 0.0464	0 / 0 / 0
UACUCGACAG	0.170	0.122 / 0.108 / 0.129	0 / 0 / 0.0232	0 / 0 / 0
UCCUCGUAAG	0.105	0.0348 / 0.0719 / 0.0922	0 / 0 / 0	0 / 0 / 0
UUCGCGCCAG	0.196	0.0869 / 0.0898 / 0.0553	0 / 0 / 0.0464	0 / 0 / 0
UAUUCGUACG	0.222	0.139 / 0 / 0	0 / 0 / 0.0232	0 / 0 / 0

Samples held 36,220 to 57,551 reads, so the smallest values rest on one or two reads. For reference, wild type rose from 20.7 per thousand in the pool to 195, 198, 203 (inoculated region), 629, 591, 734 (leaf margin) and 942, 870, 868 (systemic leaves). Sequences that differ at fixed positions probably stem from PCR or sequencing errors, and defective variants can be carried along by functional ones.

Values reported by Wu et al. 2024 (doi:10.1371/journal.ppat.1012142).